Compound potency records, mixed from different reports. Data source: NIAID ChemDB in PubChem.

All rows: toxicity to cultured cells; cell line: HeLa; measure: CC50

Neighbouring rows are from separate reports. An empty or dashed field is not shown. CCn is the concentration with n% toxicity to the cells.

CCCc1cnc(Cl)c(/C=C/C(=O)OCC)c1 ; read by: MTT ; value: 31 µM
CC(c1ccc(-c2cc(=O)n(O)c3ncccc23)cc1)N1CCOCC1 ; value: <100 µM
Nc1ncnc2c1ncn2[C@@H]1O[C@H](CSCCC(N)C(=O)O)C[C@H]1O ; value: 400 µg/mL
CC[n+]1c(-c2ccccc2)c2cc(-n3cccc3)ccc2c2ccc(N)cc21 ; value: <10 µM
COc1cc(C(=O)Oc2c(-c3ccc(Cl)c(Cl)c3)oc3ccccc3c2=O)cc(OC)c1OC(C)=O ; value: 1.29 µM
CC(=O)NC(CCSC[C@H]1O[C@@H](n2ccc3c(N)ncnc32)[C@H](O)[C@@H]1O)C(=O)O ; value: >400 µg/mL
CCS(=O)(=O)c1ccc(Oc2ccc(C(=O)c3ccccc3)cc2)nc1 ; value: >10 µg/mL
COc1ccc(-c2cc(N3CCCCC3)no2)c(O)c1 ; value: >364 µM
CC(=O)Oc1ccc(/C=C/C(=O)Oc2c(-c3ccc(Cl)cc3)oc3ccccc3c2=O)cc1OC(C)=O ; value: 1.91 µM
CCOC(=O)/C(=C\c1cc(-c2ccccc2)cnc1Cl)C(=O)c1ccccc1 ; read by: MTT ; value: 61 µM
O=C(Oc1c(-c2ccc(Cl)c(Cl)c2)oc2ccccc2c1=O)c1cc(OCc2ccccc2)c(OCc2ccccc2)c(OCc2ccccc2)c1 ; value: 1.56 µM
Nc1ncnc2c1CCN2[C@@H]1O[C@H](CSCCC(N)C(=O)O)C[C@H]1O ; value: 200 µg/mL
O=C(Oc1c(-c2ccc(Cl)c(Cl)c2)oc2ccccc2c1=O)c1cc(O)c(O)c(O)c1 ; value: 6.32 µM
O=c1c(-c2ccc(Br)cc2)c(O)c2cccnc2n1O ; value: <100 µM
COc1cc(C(=O)Oc2c(-c3ccc(Cl)c(Cl)c3)oc3ccccc3c2=O)cc(OC)c1O ; value: 3.32 µM
CC(C)(C)C(=O)OCn1nc([C@@H]2O[C@H](CO)C[C@H]2O)c2ncnc(N)c21 ; value: 200 µg/mL
NC1CSCON2CCc3c([nH]c4ccccc34)[C@H]12 ; value: ≥4 µg/mL
COc1cc(/C=C/C(=O)Oc2c(-c3ccc(Cl)c(Cl)c3)oc3ccccc3c2=O)ccc1O ; value: 1.29 µM
CCOc1ccc(-c2cc(N(CC)CC)no2)c(O)c1 ; value: >362 µM
CCS(=O)(=O)c1cccnc1Oc1ccc(C(=O)c2ccccc2)cc1 ; value: >10 µg/mL
COc1cc(C(=O)Oc2c(-c3ccc(Cl)cc3)oc3ccccc3c2=O)ccc1OC(C)=O ; value: 14.22 µM
C#CCS(=O)(=O)c1nc(-c2ccc([N+](=O)[O-])c(C(F)(F)F)c2)n[nH]1 ; read by: MTT ; value: 8.5 µg/mL
CS(=O)(=O)NCc1ccc(-c2cc(=O)n(O)c3ncccc23)cc1 ; value: <100 µM
CSc1noc(-c2ccc(OCCCc3ccccc3)cc2)c1C#N ; value: >25 µM
CCCCCCCCCCCC=O ; read by: trypan blue ; value: 190 µg/mL
O=C(Nc1ccc(C(=O)N2CCc3cc(C(=O)N4CCOCC4)sc3-c3ccccc32)cc1)c1ccccc1-c1ccccc1 ; value: >100 µM
COc1ccccc1C(=O)Nc1ccccc1C(O)c1ccc([N+](=O)[O-])cc1 ; read by: MTT ; value: >100 µM
CCOC(=O)c1ccc(OCCOc2ccc(-c3onc(SC)c3C#N)cc2)cc1 ; value: 10 µM
O=C(/C=C/c1cc(-c2ccccc2)cnc1Cl)c1ccccc1 ; read by: MTT ; value: 152 µM
CO[C@H]1C=C2C(C[C@H](O)[C@@H](O)C2(C)C)[C@]2(C)C(=O)C[C@]3(C)C([C@@](C)(O)C(=O)CCC(C)(C)OC(C)=O)[C@H](O)C[C@@]3(C)[C@H]12 ; read by: MTT ; value: 5.1 µM
Nc1nccc2c1ncn2[C@@H]1O[C@H](CSCCC(N)C(=O)O)C[C@H]1O ; value: >400 µg/mL
COC(=O)c1ccc(C(O)c2ccccc2NC(=O)c2ccccc2OC)cc1 ; read by: MTT ; value: >100 µM
Fc1ccc(-c2n[nH]c(=S)s2)cc1 ; read by: MTT ; value: 7.15 µg/mL
COC(=O)c1ccc(/C=C/C(=O)c2ccccc2)c(Cl)n1 ; read by: MTT ; value: 104 µM
NC1CCCON2CCc3c([nH]c4ccccc34)[C@H]12 ; value: 340 µg/mL
O=[N+]([O-])c1ccc(-c2nc(=S)[nH][nH]2)cc1 ; read by: MTT ; value: 40.29 µg/mL
CC(CCC=C(CO)CO)C1CC[C@@]2(C)[C@@H]3CC=C4[C@@H](CCC(O)C4(C)C)[C@]3(C)C(O)C[C@]12C ; read by: MTT ; value: 24.8 µM
COc1ccccc1NC(=O)c1ccccc1C(O)c1ccc([N+](=O)[O-])cc1 ; read by: MTT ; value: >100 µM
NC1(c2cccc(-c3ccc(-c4cc(=O)n(O)c5ncccc45)cc3)c2)CC1 ; value: <100 µM
N#Cc1cccnc1Oc1ccc(C(=O)c2ccccc2)cc1 ; value: >10 µg/mL
CCOC(=O)c1c(O)c2cc(C(=O)NC3CCCCC3)cnc2n(O)c1=O ; value: <100 µM
CCSc1ccc(Oc2ccc(C(=O)c3ccccc3)cc2)nc1C#N ; value: >10 µg/mL
C=CCSc1n[nH]c(-c2ccc([N+](=O)[O-])c(C(F)(F)F)c2)n1 ; read by: MTT ; value: 23.22 µg/mL
CS(=O)(=O)c1ccc(Oc2ccc(C(=O)c3ccccc3)cc2)nc1 ; value: >10 µg/mL
C/C(=C/[C@H]1C[C@](C)(O)C2[C@@H](C[C@@]3(C)[C@@H]4CC=C5[C@@H](C[C@H](O)[C@@H](O)C5(C)C)[C@]4(C)C(=O)C[C@]23C)O1)CO ; read by: MTT ; value: >50 µM
Nc1ncnc2c([C@@H]3O[C@H](CSCCC(N)C(=O)O)[C@@H](O)[C@H]3O)[nH]nc12 ; value: 400 µg/mL
CCN(CC)c1noc(-c2ccc(O)cc2O)c1Cc1c(N(CC)CC)noc1-c1ccc(OC)cc1O ; value: 3.5 µM
CSc1noc(-c2ccc(OCCOc3ccc(C)cc3)cc2)c1C#N ; value: >25 µM
O=C(NCc1ccccc1)c1cnc2c(c1)c(O)c(C(=O)NCc1ccccc1)c(=O)n2O ; value: <100 µM
CCN(CC)c1cc(-c2ccc(OC)cc2OC)on1 ; value: >362 µM

6 of the rows above, restated:

structure | read by | value
N#Cc1cccnc1Oc1ccc(C(=O)c2ccccc2)cc1 | - | >10 µg/mL
CC(=O)NC(CCSC[C@H]1O[C@@H](n2ccc3c(N)ncnc32)[C@H](O)[C@@H]1O)C(=O)O | - | >400 µg/mL
CC(CCC=C(CO)CO)C1CC[C@@]2(C)[C@@H]3CC=C4[C@@H](CCC(O)C4(C)C)[C@]3(C)C(O)C[C@]12C | MTT | 24.8 µM
COC(=O)c1ccc(C(O)c2ccccc2NC(=O)c2ccccc2OC)cc1 | MTT | >100 µM
C#CCS(=O)(=O)c1nc(-c2ccc([N+](=O)[O-])c(C(F)(F)F)c2)n[nH]1 | MTT | 8.5 µg/mL
COc1ccc(-c2cc(N3CCCCC3)no2)c(O)c1 | - | >364 µM